Pooled drug test results. Numbers come from NIAID ChemDB, via PubChem.

Shared fields: host cell toxicity; measure: CC50

Neighbouring rows are from separate reports.

structure	cells	method	conditions	value
C=C(C)/C=C/[C@]12C[C@H](C)C3CC[C@](C)(C#N)[C@@H](CC[C@H]1C)[C@@H]32	Mammalian KB cells			19 µg/mL
O=c1[nH]c(=O)n([C@H]2C[C@H](O)[C@@H](COP3(=O)OCc4cc5ccccc5cc4O3)O2)cc1/C=C/Br	HELF			85 µg/mL
COc1ccc(-c2cc(=O)c3c(O)cc(O)cc3o2)cc1-c1c(O)cc2oc(-c3ccc(O)cc3)cc(=O)c2c1O	HepG 2.2.15 cells	MTT		50 µg/mL
O=C1CN=C(c2ccccc2)c2ccccc2N1CCCCC1CC(Br)=NO1	J774.1 macrophage cell line	resazurin / absorbance		12.2 µM
C/C(=N\OCc1ccc(F)cc1)c1c(C)cc(=O)n(O)c1O	HepG2-NTCO-12	MTS	7 d	>50 µM
Oc1cc(O)c2c(c1)O[C@H](c1ccc(O)c(O)c1)[C@H](O)C2	Huh-7/3-1			113.8 µg/mL
O=C1CN=C(c2ccccc2)c2ccccc2N1CCCC1CC(Br)=NO1	J774.1 macrophage cell line	resazurin / absorbance		22.5 µM
CC[C@H](C)[C@H](N)C(=O)O[C@H]1C[C@H](n2cc(/C=C/Br)c(=O)[nH]c2=O)O[C@@H]1COP1(=O)OCc2cccc(C)c2O1	HELF			54.4 µg/mL
C(=N\Nc1nncs1)/c1cn(Cc2ccccc2)c2ccccc12	Fibroblast L929 cell line	MTT	24 h	>100 µg/mL
Nc1nc(N)c2ncn(C[C@@H](CO)OCP(=O)(O)O)c2n1	Primary duck hepatocytes			>100 µM
CC1OP(=O)(OC[C@H]2O[C@@H](n3cc(/C=C/Br)c(=O)[nH]c3=O)C[C@@H]2O)Oc2cccc(Cl)c21	HELF			>128 µg/mL
CCCCCCCCCC(=O)O/N=C1\c2ccccc2-c2c1c(-n1ccnc1)nc1ccc(Br)cc21	U-937	MTT		>10 µg/mL
Cc1cc(N)c(C)c2c1[nH]c1c(Cl)cccc12	TZM-bl			14.7 µM
Clc1ccccc1Cn1cc(/C=N/Nc2nncs2)c2ccccc21	Fibroblast L929 cell line	MTT	24 h	>100 µg/mL
NC12CC3CC(CC(C3)C1)C2	Panc-1			40–1000 µM
Cc1cccc2c1OP(=O)(OC[C@H]1O[C@@H](n3cc(/C=C/Br)c(=O)[nH]c3=O)C[C@@H]1OC(=O)[C@H](N)Cc1ccccc1)OC2	HELF			119 µg/mL
Cc1ccc(-c2ccc3c(c2)C=C(C(=O)Nc2ccc(C[N+](C)(C)C4CCOCC4)cc2)CCC3)cc1	P4R5			>10 µM
CC1=C(Br)[C@H](O)[C@@]2(C=C1Br)CC(C(=O)NCC(O)c1cc(Br)c(OC[C@@H](O)CNC(=O)C3=NO[C@]4(C=C(Br)C(C)=C(Br)[C@@H]4O)C3)c(Br)c1)=NO2	J774A.1 macrophages	resazurin		>200 µg/mL
Cc1cccc2c1OP(=O)(OC[C@H]1O[C@@H](n3cc(/C=C/Br)c(=O)[nH]c3=O)C[C@@H]1OC(=O)[C@H]1CCCN1)OC2	HELF			>128 µg/mL
Cc1cn([C@H]2C[C@H](N=[N+]=[N-])[C@@H](CO)O2)c(=O)[nH]c1=O	U-937			91 µM
COc1cc2oc(=O)cc(O)c2c(O)c1Oc1ccc(-c2cc(=O)c3c(O)cc(O)cc3o2)cc1	HepG 2.2.15 cells	MTT		<20 µg/mL
Cc1cn([C@H]2C[C@H](N=[N+]=[N-])[C@@H](CO)O2)c(=O)[nH]c1=O	P3HR-1			200 µM
Nc1nc(SCc2ccc([N+](=O)[O-])cc2)c2ncn([C@H]3CC[C@@H](CO)O3)c2n1	Human fibroblasts	MTT		>5 µM
Fc1cccc(Cn2cc(/C=N/Nc3nncs3)c3ccccc32)c1	Fibroblast L929 cell line	MTT	24 h	>100 µg/mL
CC(=O)CCC(=O)O[C@H]1C[C@H](n2cc(/C=C/Br)c(=O)[nH]c2=O)O[C@@H]1COP1(=O)OCc2ccccc2O1	HELF			>128 µg/mL
CC(=O)NCC(=O)O/N=C1\c2ccccc2-c2c1c(N1CCN(c3ccccn3)CC1)nc1ccc(Br)cc21	U-937	MTT		>10 µg/mL
CN1CC[C@H](c2c(O)cc(O)c3c(=O)cc(-c4ccccc4Cl)oc23)[C@H](O)C1	PM1	MTT		>0.05 µM
Nc1ccn([C@@H]2CO[C@H](CO)S2)c(=O)n1	P3HR-1			30 µM
CCCCCC(=O)O/N=C1\c2ccccc2-c2c1c(-n1ccnc1)nc1ccc(Br)cc21	U-937	MTT		>10 µg/mL
C(=N\Nc1nncs1)/c1cn(CC2CC2)c2ccccc12	Fibroblast L929 cell line	MTT	24 h	>100 µg/mL
Cc1nc2ccccc2n1C1C[C@H]2CC[C@@H](C1)N2CC[C@H](NC(=O)C1CCOCC1)c1ccccc1	HEK			>1 µM
CCCCn1cc(/C=N/Nc2nncs2)c2ccccc21	Fibroblast L929 cell line	MTT	24 h	>100 µg/mL
CC(N)C12CC3CC(CC(C3)C1)C2	161-Br			10–4000 µM
C[C@H](Cn1cnc2c(N)ncnc21)OCP(=O)(O)O	Primary duck hepatocytes			>100 µM
COc1ccc(C(=O)Nc2ncnc3c2ncn3[C@H]2CC[C@@H](CO)O2)cc1	Human fibroblasts	MTT		>5 µM
C[C@@]1(O)[C@H](O)[C@@H](CO)O[C@H]1n1ccc(N)nc1=O	Huh 5-2			>30 µM
Nc1nc(SCc2ccccc2)c2ncn([C@H]3CC[C@@H](CO)O3)c2n1	Human fibroblasts	MTT		>5 µM
O=C(O)P(=O)(O)O	H4			260 µg/mL
Cc1nnc(C(C)C)n1C1C[C@H]2CC[C@@H](C1)N2CC[C@H](NC(=O)C1CCC(F)(F)CC1)c1ccccc1	TZM-bl			>1000 µM
CC(=O)N(O)CCCCCNC(=O)CCC(=O)N(O)CCCCCNC(=O)CCC(=O)N(O)CCCCCN	U373-MAGI	ATP		>400 µM
Nc1ccn([C@@H]2CO[C@H](CO)O2)c(=O)n1	P3HR-1			30 µM
Cc1cccc2c1OP(=O)(OC[C@H]1O[C@@H](n3cc(/C=C/Br)c(=O)[nH]c3=O)C[C@@H]1OC(=O)C(C)C)OC2	HELF			73.7 µg/mL
Oc1cc(O)c2c(c1)O[C@H](c1ccc(O)c(O)c1)[C@H](O)[C@H]2c1c(O)cc(O)c2c1O[C@H](c1ccc(O)c(O)c1)[C@H](O)C2	Huh-7/3-1			>25 µg/mL
O=c1[nH]c(=O)n([C@H]2C[C@H](O)[C@@H](CO)O2)cc1/C=C/Br	U138-MG			175 µg/mL
c1cc(CN2CCCNCCNCCCNCC2)ccc1CN1CCCNCCNCCCNCC1	HEK			>1 µM
CC(C)CCCC/C=C\CCCCCCCC(=O)O	J774A.1 macrophages	resazurin		>200 µg/mL
CC(=O)OC1(C)c2ccccc2-c2c1c(-n1ccnc1)nc1ccc(Br)cc21	U-937	MTT		>10 µg/mL
Cc1ccc(C)c2c1[nH]c1c(Cl)cccc12	TZM-bl			13.6 µM
CO[C@H]1/C=C/O[C@@]2(C)Oc3c(C)c(O)c4c(O)c(c(/C=N/N5CCN(C)CC5)c(O)c4c3C2=O)NC(=O)/C(C)=C\C=C\[C@H](C)[C@H](O)[C@@H](C)[C@@H](O)[C@@H](C)[C@H](OC(C)=O)[C@@H]1C	Vero cells			89 µg/mL

Blank or dashed fields: not listed here. Two numbers with a dash give a range or band. CCn: concentration that lowers growth or viability of the cells by n%.